Legend:
[1] = Assay 1: radiolytic reduction of prodrug in formate buffer (or other solution), products analysed by HPLC
SKOV3 cells = experiment: Cytotoxicity against SKOV3 cells, 4 hr aerobic exposure; format: cell-based, human; conditions: read-out: IC50, P (unirradiated prodrug); SKOV3, 4 hr aerobic exposure; mean ± SEM
[2] = test system: hypoxic mammaliam cells in culture; conditions: cited from earlier work
UV4 cells [3] = experiment: HPLC/bioassay of irradiated solution of compound 1; conditions: sodium formate, dose corresponding to one reducing equivalent (FIG. 2)
UV4 cells [4] = experiment: Cytotoxicity against UV4 cells, 4 hr aerobic exposure; format: cell-based; conditions: read-out: IC50, P (unirradiated prodrug); UV4, 4 hr aerobic exposure; mean ± SEM
UV4 cells [5] = conditions: αMEM, prodrug concentration 50

bis(3-methyl-2,4-pentanedionato)(N,N-bis(2-chloroethyl)ethylenediamine)cobalt (III) chloride
effect of oxygen on radiolytic consumption of complex and formation of DCE and Co(II)(H2O)6^2+ ([1]; 50 μM in formate (FIG. 1)): inhibited by oxygen | release of DCE (2) and Co(II)(H2O)6^2+ by irradiation in culture medium ([1]; culture medium (αMEM) (FIG. 1)): also observed in culture medium | G(+E), anoxic, Assay 1 (yield of effector) ([1]; prodrug 50 μM in sodium formate pH 7.0, anoxic, cobalt-60, HPLC): 0.76 μM/Gy | IC50 (SKOV3 cells): 20 µM | selective toxicity to hypoxic cells [2]: selectively toxic to hypoxic mammaliam cells in culture | bioactivity of HPLC eluate after irradiation (UV4 cells [3]): loss of bioactivity in the region corresponding to the parent, and the appearance of a new peak of bioactivity corresponding in retention time to authentic DCE | IC50 (UV4 cells [4]): 0.3 µM | G(+E), anoxic, Assay 2 (yield of effector) (UV4 cells [5]): 0.15 μM/Gy
